Experimental data from patent publication US7115636B2, “Hetrocyclic aryl sulphonamides” (Bayer Healthcare AG, priority 2001, dated 2006).

Experiments:
[1] = system: HCMV (human cytomegalovirus); test: Anti-HCMV cytopathogenicity test; type: cell-based; settings: selectivity index = CC50 (HELF)/EC50 (HCMV)
Procedure: Anti-HCMV (anti-human cytomegalovirus) and anti-MCMV (anti-murine cytomegalovirus) cytopathogenicity tests: The test compounds were employed as 50 millimolar (mM) solutions in dimethyl sulfoxide (DMSO). Ganciclovir, foscarnet and cidofovir served as reference compounds. After the addition of 2 μl in each case of the 50, 5, 0.5 and 0.05 mM DMSO stock solutions to 98 μl each of cell culture medium in row […] in duplicate, 1:2 dilutions using 50 μl each of medium up to row 11 of the 96-well plate were carried out. The wells in rows 1 and 12 each contained 50 μl of medium. 150 μl each of a suspension of 1×10^4 cells (human lung fibroblasts [HELF]) were then pipetted into the wells (row 1=cell control) or a mixture of HCMV-infected and non-infected HELF cells (M.O.I.=0.001-0.002), i.e. 1-2 infected cells to 1000 non-infected cells, was pipetted into rows 2-12. Row 12 (without substance) served as a virus control. The final test concentrations were 250-0.0005 μM. The plates were incubated at 37° C./5% CO2 for 6 days, i.e. until all cells were infected in the virus controls (100% cytopathogenic effect [CPE]). The wells were then fixed by addition of a mixture of formalin and Giemsa's stain and stained (30 minutes), washed with double-distilled water and dried at 50° C. in a drying oven. The plates were then evaluated visually using an overhead microscope (Plaque multiplier from Technomara). […]

[2] = system: MCMV (murine cytomegalovirus); test: Anti-MCMV cytopathogenicity test; type: cell-based; settings: selectivity index, CC50 (3T3)/EC50 (MCMV)
Procedure: Anti-HCMV (anti-human cytomegalovirus) and anti-MCMV (anti-murine cytomegalovirus) cytopathogenicity tests:
The test compounds were employed as 50 millimolar (mM) solutions in dimethyl sulfoxide (DMSO). Ganciclovir, foscarnet and cidofovir served as reference compounds. After the addition of 2 μl in each case of the 50, 5, 0.5 and 0.05 mM DMSO stock solutions to 98 μl each of cell culture medium in row 2 A-H in duplicate, 1:2 dilutions using 50 μl each of medium up to row 11 of the 96-well plate were carried out. The wells in rows 1 and 12 each contained 50 μl of medium. 150 μl each of a suspension of 1×10^4 cells (human lung fibroblasts [HELF]) were then pipetted into the wells (row 1=cell control) or a mixture of HCMV-infected and non-infected HELF cells (M.O.I.=0.001–0.002), i.e. 1–2 infected cells to 1000 non-infected cells, was pipetted into rows 2–12. Row 12 (without substance) served as a virus control. The final test concentrations were 250–0.0005 μM. The plates were incubated at 37° C./5% CO2 for 6 days, i.e. until all cells were infected in the virus controls (100% cytopathogenic effect [CPE]). The wells were then fixed by addition of a mixture of formalin and Giemsa's stain and stained (30 minutes), washed with double-distilled water and dried at 50° C. in a drying oven. The plates were then evaluated visually using an overhead microscope (Plaque multiplier from Technomara). […]

| SMILES | SI HCMV [1] | SI MCMV [2] |
| --- | --- | --- |
| CC1(C(=O)Nc2ccc(NS(=O)(=O)c3cccc(-c4noc([C@@H](N)CCCCN)n4)c3)cc2)CC1 [Example 1] | >8929 | 514 |
| CC(C)[C@H](N)c1nc(-c2ccc(S(=O)(=O)Nc3cccc(NC(=O)C(C)(C)CF)c3)cc2)no1 [Example 3, N-(3-{[(4-{5-[(1S)-1-Amino-2-methylpropyl]-1,2,4-oxadiazol-3-yl}phenyl)sulphonyl]amino}phenyl)-3-fluoro-2,2-dimethylpropanamide] | 3378 | 851 |
